Data reported in patent publication US20120108592A1, “PHARMACEUTICAL COMPOSITIONS AND METHODS OF USE OF SALICYLANILIDES FOR TREATMENT OF HEPATITIS VIRUSES” (priority 2010, published 2012).

What was measured:
[1] = test system: HCV replicon cell line, AVA5 (sub-genomic CONI, genotype 1b); test: Primary HCV replicon cell assay, antiviral activity (intracellular HCV RNA, blot hybridization); format: cell-based, hepatitis C virus (HCV); details: CC50/EC50
Method: (§1) Antiviral activity of test compounds was assessed in a 3-day assay using the stably-expressing HCV replicon cell line, AVA5 (sub-genomic CONI, genotype 1b) [Korba, B. E. et al. Antiviral Res. 77, 56-63 (2008); Blight et al., Science 290, 1972-1974 (2000)] maintained as sub-confluent cultures on 96-well plates as previously described [Okuse et al., Antiviral Research 65, 23-34 (2005)]. Antiviral activity was determined by blot hybridization analysis of intracellular HCV RNA (normalized to the level of cellular B-actin RNA in each culture sample) and cytotoxicity was assessed by neutral red dye uptake after 3 days of treatment. Additional studies were performed using Huh7 cells containing another HCV replicon, H/FL-Neo, a genotype la full length construct [Blight et al., J. Virol. 77, 3181-3190 (2003)]. For studies involving human serum, standard culture medium (which contains 10% fetal bovine serum) and assay conditions were maintained.
(§2) EC50, EC90 and CC50 values (±standard deviations [S.D.]) were calculated by linear regression analysis using data combined from all treated cultures (Korba, B. E. et al. Antiviral Res. 77, 56-63 (2008)). […] Selectivity index (S.I.) was calculated as CC50/EC90 for HBV assays and CC50/EC50 for HCV assays.

[2] = test system: HCV replicon cell line, AVA5 (sub-genomic CONI, genotype 1b); test: Secondary HCV replicon cell assay genotype 1b, antiviral activity; format: cell-based, hepatitis C virus (HCV); details: CC50/EC50
Method: as §1, §2

[3] = test system: HCV replicon H/FL-Neo, genotype 1a full length construct, in Huh7 cells; test: Secondary HCV replicon cell assay genotype 1a, antiviral activity; format: cell-based, hepatitis C virus (HCV); details: CC50/EC50
Method: as §1, §2

[4] = test system: HBV virion in 2.2.15 cells; test: HBV antiviral assay in 2.2.15 cells, virion (VIR) HBV DNA; format: cell-based, hepatitis B virus (HBV); details: CC50/EC90, virion
[5] = test system: HBV replication intermediates in 2.2.15 cells; test: HBV antiviral assay in 2.2.15 cells, replication intermediates (RI) HBV DNA; format: cell-based, hepatitis B virus (HBV); details: CC50/EC90, replication intermediates

Structure (SMILES) | SI [1] | SI (VIR) [4] | also measured
Cc1cccc(C(=O)Nc2cccc(F)c2)c1O [Compound 9, N-(3-fluorophenyl)-2-hydroxy-3-methylbenzamide] | 21.0 |  | 
O=C(O)c1ccccc1C(=O)Nc1ccccc1Cl [Compound 15, 2-(2-chlorophenylcarbamoyl)benzoic acid] | 27.0 |  | 
CC(=O)Oc1ccccc1C(=O)Nc1cc(C(F)(F)F)cc(C(F)(F)F)c1 [Compound 34, 2-(3,5-bis(trifluoromethyl)phenylcarbamoyl)phenyl acetate] | 9.7 |  | SI [2]: 10.5; SI [3]: 9.9
CC(=O)Oc1ccccc1C(=O)Nc1cc(C(F)(F)F)ccc1Cl [Compound 52, 2-(2-chloro-5-(trifluoromethyl)phenylcarbamoyl)phenyl acetate] |  | 65.0 | 
COC(=O)c1ccc(NC(=O)c2ccccc2OC(C)=O)cc1 [Compound 44, methyl 4-(2-acetoxybenzamido)benzoate] | 75.9 |  | SI [2]: 19.4; SI [3]: 24.8
O=C(Nc1cccc(F)c1)c1ccccc1O [Compound 3, N-(3-fluorophenyl)-2-hydroxybenzamide] | > 124.0 |  | SI [2]: 18.3; SI [3]: 23.5
CC(=O)Oc1ccc(Cl)cc1C(=O)Nc1ccc([N+](=O)[O-])cc1Cl [Compound 25, 4-chloro-2-(2-chloro-4-nitrophenylcarbamoyl)phenyl acetate] | 43.0 |  | SI [2]: 43.6; SI [3]: 43.0
CC(=O)Oc1ccccc1C(=O)Nc1cccc(F)c1 [Compound 24, 2-(3-fluorophenylcarbamoyl)phenyl acetate] | > 49.0 |  | 
O=C(Nc1ccccc1Br)c1ccccc1O [Compound 4, N-(2-bromophenyl)-2-hydroxybenzamide] | > 17.0 |  | 
O=C(Nc1ccc([N+](=O)[O-])cc1Cl)c1cc(Cl)ccc1O [Compound 6, 5-chloro-N-(2-chloro-4-nitrophenyl)-2-hydroxybenzamide] | 35.0 |  | SI [2]: 6.5; SI [3]: 6.9
O=C(Nc1ncc([N+](=O)[O-])s1)c1ccccc1O [TIZ, tizoxanide, reference compound] |  | > 172.4 | SI (RI) [5]: > 83.3
O=C(Nc1ccc(C(F)(F)F)cc1)c1ccccc1O [Compound 51, 2-hydroxy-N-(4-(trifluoromethyl)phenyl)benzamide] |  | > 4.8 | 
Cc1cccc(C(=O)Nc2cccc(Cl)c2)c1O [Compound 14, N-(3-chlorophenyl)-2-hydroxy-3-methylbenzamide] | 13.0 |  | 
O=C(Nc1cc(C(F)(F)F)ccc1Cl)c1ccccc1O [Compound 41, N-(2-chloro-5-(trifluoromethyl)phenyl)-2-hydroxybenzamide] | 65.2 | > 7.7 | SI [2]: 17.5; SI [3]: 12.3
CC(=O)Oc1ccccc1C(=O)Nc1ccc(Cl)cc1 [Compound 38, 2-(4-chlorophenylcarbamoyl)phenyl acetate] |  | > 11.0 | 
O=C(Nc1cccc(C(F)(F)F)c1)c1ccccc1O [Compound 27, 2-hydroxy-N-(3-(trifluoromethyl)phenyl)benzamide] | > 28.0 |  | 
CC(=O)Oc1ccccc1C(=O)Nc1cc([N+](=O)[O-])ccc1Cl [Compound 54, 2-(2-chloro-5-nitrophenylcarbamoyl)phenyl acetate] |  | 7.6 | 
Cc1cc([N+](=O)[O-])c(Cl)cc1NC(=O)c1ccccc1O [Compound 42, N-(5-chloro-2-methyl-4-nitrophenyl)-2-hydroxybenzamide] |  | > 141.0 | SI (RI) [5]: > 48.0
CC(=O)Oc1ccccc1C(=O)Nc1ccc(F)c(F)c1 [Compound 55, 2-(3,4-difluorophenylcarbamoyl)phenyl acetate] |  | 5.5 | 
CC(=O)Oc1ccccc1C(=O)Nc1ccc(Cl)c([N+](=O)[O-])c1 [Compound 53, 2-(4-chloro-3-nitrophenylcarbamoyl)phenyl acetate] |  | 6.0 | 
O=C(Nc1cccc([N+](=O)[O-])c1)c1ccccc1O [Compound 7, 2-hydroxy-N-(3-nitrophenyl)benzamide] | 31.0 |  | 
Cc1cccc(C(=O)Nc2ccc(Cl)cc2)c1O [Compound 20, N-(4-chlorophenyl)-2-hydroxy-3-methylbenzamide] | > 15.0 |  | 
CC(=O)Oc1ccccc1C(=O)Nc1ccc(Br)cc1 [Compound 39, 2-(4-bromophenylcarbamoyl)phenyl acetate] |  | > 33.0 | SI (RI) [5]: > 15.0
O=C(Nc1ccc(OC(F)(F)C(F)F)cc1)c1ccccc1O [Compound 49, 2-hydroxy-N-(4-(1,1,2,2-tetrafluoroethoxy)phenyl)benzamide] | 12.0 |  | 
O=C(Nc1ccccc1Cl)c1ccccc1O [Compound 23, N-(2-chlorophenyl)-2-hydroxybenzamide] | 19.0 |  | 
CC(=O)Oc1ccccc1C(=O)Nc1ccc(I)cc1 [Compound 40, 2-(4-iodophenylcarbamoyl)phenyl acetate] |  | > 83.0 | SI (RI) [5]: > 30.0
